Experimental findings from PMC12423841 (ACS Omega, 2025) are described below.

Some results are limits rather than exact numbers.

Test [1] addresses RBDWuhan (SARS-CoV-2 spike RBD, Wuhan-Hu-1 variant) (Severe acute respiratory syndrome coronavirus 2, UniProt P0DTC2). In kind it is binding. The following applies: read-out: K D values RBDWuhan.
Test [2] addresses RBDBA.1 (SARS-CoV-2 spike RBD, Omicron BA.1 variant) (Severe acute respiratory syndrome coronavirus 2, UniProt P0DTC2, E484A/G339D/G446S/G496S/K417N/N440K/N501Y/Q493R/Q498R/S371L/S373P/S375F/S477N/T478K/Y505H). It counts as binding. Conditions: read-out: K D values RBDBA.1.

As for iofendylate, the Kd in test [1] and in test [2] was above 1000 µM each time.
